Measured values from several laboratories, pooled; numbers as filed in NIAID ChemDB.

Shared fields: whole-cell or culture tests; species: Mycobacterium tuberculosis

MIC50, MIC90 and the like: level of inhibition, or share of isolates inhibited. Conditions beyond the fields shown may differ between rows. ECn is the concentration giving n% inhibition of infection, replication or growth. An empty or dashed field is not shown. MIC bound comes from a single tested concentration. Percent inhibition refers to the dose given; in toxicity tests it is the harm to the cells. Two numbers with a dash give a range or band.

compound	strain	tested at	endpoint	read by	value
C[C@H]1COc2c(N3CCN(C)CC3)c(F)cc3c(=O)c(C(=O)O)cn1c23	82 strains		MIC50		0.5 µg/mL
CCCCn1c(-c2ccc(O)cc2)cs/c1=N\NC(=O)COc1cnccn1	H37Rv		MIC		16 µg/mL
O=C1C=CC(=Nc2ccc(O)c3ncccc23)c2cccnc21	H37Rv		MIC bound	BACTEC	>12.5 µg/mL
CC[C@@H](CO)NCCN[C@@H](CC)CO	Isolate 4		MIC		8 µg/mL
CC1COc2c(N3CCN(C(N)=NC#N)CC3)c(F)cc3c(=O)c(C(=O)O)cn1c23	ATCC35821		MIC	broth dilution	0.625–1.25 µg/mL
CCC(C)OC(=O)N1CCN(c2ccc3cc(-c4ccccc4)c(N4CCN(C(=O)OC(C)CC)CC4)nc3n2)CC1	H37Rv	6.25 µg/mL	inhibition		48%
CO[C@H]1/C=C/O[C@@]2(C)Oc3c(C)c(O)c4c(O)c(c(/C=N/N5CCN(C6CCCC6)CC5)c(O)c4c3C2=O)NC(=O)/C(C)=C\C=C\[C@H](C)[C@H](O)[C@@H](C)[C@@H](O)[C@@H](C)[C@H](OC(C)=O)[C@@H]1C	H37Rv		MIC		0.015 µg/mL
C[C@@H]1CN(c2c(F)c(N)c3c(=O)c(C(=O)O)cn(C4CC4)c3c2F)C[C@H](C)N1	CSU23		MIC		≤0.125 µg/mL
CC1CN(c2cc3c(cc2F)c(=O)c(C(=O)O)cn3-c2ccc(F)cc2F)CCN1	Drug-resistant		MIC90		2 µg/mL
CO[C@H]1/C=C/O[C@@]2(C)Oc3c(C)c(O)c4c(=O)c(c5oc6cc(N7CCN(CC(C)C)CC7)cc(=O)c6nc5c4c3=C2O)NC(=O)/C(C)=C\C=C\[C@H](C)[C@H](O)[C@@H](C)[C@@H](O)[C@@H](C)[C@H](OC(C)=O)[C@@H]1C	2983 (rifampin-sensitive)		MIC		0.006 µg/mL
CC(=O)OC(C)C(O)C(O)C(/C=C/C1CC=CC(=O)O1)OC(C)=O	H37Rv		MIC	BACTEC	≥12.5 µg/mL
C[C@H]1COc2c(N3CCN(C)CC3)c(F)cc3c(=O)c(C(=O)O)cn1c23	ATCC 35826		MIC		0.25 µg/mL
O=C(NCCO)c1c(CNC2CCCCC2)n([O-])c2ccccc2[n+]1=O	H37Rv	6.25 µg/mL	inhibition	resazurin	-18%
CO[C@H]1/C=C/O[C@@]2(C)Oc3c(C)c(O)c4c(O)c(c(/C=N/N5CCN(C/C=C/c6ccccc6)CC5)c(O)c4c3C2=O)NC(=O)/C(C)=C\C=C\[C@H](C)[C@H](O)[C@@H](C)[C@@H](O)[C@@H](C)[C@H](OC(C)=O)[C@@H]1C	2225 (MDR)		MIC		8 µg/mL
O=c1cc(-c2ccc(Cl)cc2)oc2ccccc12	H37Rv	12.5 µg/mL	inhibition		7%
O=[N+]([O-])c1ccc(-n2cc(CSC3c4ccccc4-c4ccccc43)nn2)cc1	Specimen 192		MIC99	broth dilution	>250 µM
CC1CN(c2c(F)cc3c(=O)c(C(=O)O)cn(C4CC4)c3c2F)CC(C)N1	CSU12		MIC		≤0.125 µg/mL
CCN1CCN(c2ccc3c(-c4ccccc4)cc(N4CCN(CC)CC4)nc3n2)CC1	H37Rv	6.25 µg/mL	inhibition		81%
O=C1CC(c2ccccc2)Oc2cc(F)ccc21		12.5 µg/mL	inhibition		7%
CC(=O)c1cc([N+](=O)[O-])c2ncccc2c1C(C)C	H37Rv	6.25 µg/mL	inhibition		0%
COc1ccccc1C1OC2=Nc3cc(C)c(C)cc3NC2C1=O	H37Rv		MIC bound	BACTEC	>12.5 µg/mL
O=c1cc(-c2cccc(I)c2)oc2ccccc12	H37Rv	12.5 µg/mL	inhibition		20%
NC1CCN(c2nc3c(cc2F)c(=O)c(C(=O)O)cn3-c2ccc(F)cc2F)C1	Drug-resistant		MBC90		>8 µg/mL
CCOc1ccc(-n2c(-c3ccc(C)cc3)cs/c2=N\NC(=O)COc2cnccn2)cc1	H37Rv		MIC		12 µg/mL
C[C@H]1C[C@H](N)CN1c1cc2c(cc1F)c(=O)c(C(=O)O)cn2-c1ccc(F)cc1F	ATCC35838		MIC		2 µg/mL
CO[C@H]1/C=C/O[C@@]2(C)Oc3c(C)c(O)c4c(O)c(c5c(c4c3C2=O)NC2(CCN(CC(C)C)CC2)N=5)=NC(=O)/C(C)=C\C=C\[C@H](C)[C@H](O)[C@@H](C)[C@@H](O)[C@@H](C)[C@H](OC(C)=O)[C@@H]1C	35 (rifampin-resistant)		MBC		0.2 µg/mL
C[C@@H]1CN(c2c(F)c(N)c3c(=O)c(C(=O)O)cn(C4CC4)c3c2F)C[C@H](C)N1	Isolate 9		MIC		2 µg/mL
COc1cccc2c1N=c1c(Cl)c3c(c(Cl)c1O2)=Nc1c(OC)cccc1O3	H37Rv		MIC bound	BACTEC	>12.5 µg/mL
CCC(C)OC(=O)N1CCN(c2ccc3cc(-c4ccccc4)c(N4CCCCC4)nc3n2)CC1	H37Rv	6.25 µg/mL	inhibition		91%
CO[C@H]1/C=C/O[C@@]2(C)Oc3c(C)c(O)c4c(=O)c(c5oc6cc(N7CCN(CC(C)C)CC7)cc(=O)c6nc5c4c3=C2O)NC(=O)/C(C)=C\C=C\[C@H](C)[C@H](O)[C@@H](C)[C@@H](O)[C@@H](C)[C@H](OC(C)=O)[C@@H]1C	15 (isoniazid-resistant)		MIC		0.0039 µg/mL
CC1COc2c(N3CCN(C)CC3)c(F)cc3c(=O)c(C(=O)O)cn1c23	82 strains		MIC90		2 µg/mL
CCc1ccc(-n2cc(CS(=O)(=O)C3c4ccccc4-c4ccccc43)nn2)cc1	H37Rv		MIC99	broth dilution	120 µM
CC(=O)Nc1cccc2ccc(C3CCCCC3)nc12	H37Rv		MIC		>6.25 µg/mL
CC(C)Cn1c(-c2ccc(F)cc2)cs/c1=N\NC(=O)COc1cnccn1	H37Rv		MIC		13 µg/mL
Cc1c(N2CC3CCCNC3C2)c(F)cc2c(=O)c(C(=O)O)cn([C@@H]3C[C@@H]3F)c12	50 (RFP-resistant)		MIC		0.025 µg/mL
Cn1c(=O)c(C(=O)Nc2nc(C34CC5CC(CC(C5)C3)C4)cs2)c(O)c2ccccc21	H37Rv	6.25 µg/mL	inhibition	resazurin	19%
NNC(=O)c1ccncc1	CSU22		MIC		>8 µg/mL
O=C(/C=C/c1ccc(Br)cc1)c1ccccc1O	H37Rv		EC50		<12.5 µg/mL
CC1=C2CCC3(C)C(=C2OC1=O)C(C)=C(Cl)C(Cl)C3Cl	H37Rv		MIC bound	BACTEC	>6.25 µg/mL
Cc1c(N2C[C@@H](N)C3(CC3)C2)c(F)cc2c(=O)c(C(=O)O)cn([C@@H]3C[C@@H]3F)c12	71 (RFP-resistant)		MIC		0.2 µg/mL
Cc1ccc(-n2cc(CSC3c4ccccc4-c4ccccc43)nn2)cc1C	H37Rv		MIC99	broth dilution	>261 µM
CCCCn1c(-c2ccc(Cl)cc2Cl)cs/c1=N\NC(=O)COc1cnccn1	H37Rv		MIC		13 µg/mL
CO[C@H]1/C=C/O[C@@]2(C)Oc3c(C)c(O)c4c(O)c(c5c(c4c3C2=O)NC2(CCN(CC(C)C)CC2)N=5)=NC(=O)/C(C)=C\C=C\[C@H](C)[C@H](O)[C@@H](C)[C@@H](O)[C@@H](C)[C@H](OC(C)=O)[C@@H]1C	CSU27		MIC		≤0.125 µg/mL
COc1ccc(C2Oc3ccc(C(=O)O)cc3C(=O)C2O)cc1			EC50		>12.5 µg/mL
COc1cc2oc(-c3ccc(O)cc3)cc(=O)c2c(OC)c1OC	H37Rv		MIC bound	BACTEC	>12.5 µg/mL
Clc1ccc2c(-c3ccccc3)cc(N3CCOCC3)nc2n1	H37Rv		MIC		>6.25 µg/mL
CC1S/C(=N/N=C2\C(=O)Nc3ccc(Br)cc32)N(C2CCCCC2)C1=O	H37Rv		MIC		>12.5 µg/mL
CCN1CCN(c2cc(-c3ccccc3)c3ccc(Cl)nc3n2)CC1	H37Rv		MIC		>6.25 µg/mL
O=C(O)c1cn(C2CC2F)c2c(Cl)c(N3CC4CCCNC4C3)c(F)cc2c1=O	68 (RFP-susceptible)		MIC		0.025 µg/mL
COC(=O)C1(OC(C)=O)C(=O)NC2=C1C(=O)c1ccccc1C2=O	H37Rv	6.25 µg/mL	inhibition	resazurin	6%
CC1COc2c(N3CCN(C)CC3)c(F)cc3c(=O)c(C(=O)O)cn1c23	H37Rv		MIC		0.25 µg/mL
O=C(COc1cnccn1)NNC(=S)Nc1ccc(Cl)cc1	H37Rv		MIC		62 µg/mL
O=P(O)(O)OC1OC(CO)C(O)C(O)C1O	H37Rv	12.8 µg/mL	inhibition	BACTEC	0%
O=c1cc(-c2ccccc2)oc2cc(I)ccc12	H37Rv		MIC		>12.5 µg/mL
COc1cc2c(c3c1c(=O)c1cccc(F)c1n3C)C=CC(C)(C)O2	H37Rv		MIC	BACTEC	≥12.5 µg/mL
COc1ccc2c(-c3ccccc3)cc(N3CCOCC3)nc2n1	H37Rv	6.25 µg/mL	inhibition		35%
O=C(N/N=C/c1ccc(O)cc1O)c1ccco1	H37Rv	12.5 µg/mL	inhibition	BACTEC	10%
COc1ccc2c(=O)c(-c3c(-c4ccccc4)oc4cc(OC)ccc4c3=O)c(-c3ccccc3)oc2c1	H37Rv		EC50		>12.5 µg/mL
O=C(COc1cnccn1)N/N=c1\scc(-c2ccc(O)cc2)n1-c1ccc(Cl)cc1[N+](=O)[O-]	H37Rv		MIC		7 µg/mL
COc1ccc(C2Oc3c(I)cccc3C(=O)C2O)cc1	H37Rv	12.5 µg/mL	inhibition		6%
CCC1=NC(N/N=C/c2ccco2)=N/C1=C/c1ccco1	H37Rv		MIC bound	BACTEC	≤12.5 µg/mL
O=C1CC(c2ccccc2)Oc2ccc(F)cc21	H37Rv	12.5 µg/mL	inhibition		7%
O=S(=O)(Cc1cn(-c2ccccc2Cl)nn1)C1c2ccccc2-c2ccccc21	H37Rv		MIC99	broth dilution	237 µM
CC(=O)c1cc([N+](=O)[O-])c2ncccc2c1C1CCCC1	H37Rv		MIC		>6.25 µg/mL
Cc1oc2c(C)c3oc(=O)cc(C)c3cc2c1CCl	H37Rv		MIC bound	BACTEC	≤12.5 µg/mL
c1ccc(-c2cc(N3CCN(c4ccccc4)CC3)nc3nc(N4CCN(c5ccccc5)CC4)ccc23)cc1	H37Rv		MIC		>6.25 µg/mL
O=C(O)c1ccc2c(c1)C(=O)CC(c1ccccc1)O2	H37Rv		EC50		>12.5 µg/mL
C=CCn1c(-c2ccccc2)cs/c1=N\N=C1/C(=O)Nc2ccc(Br)cc21.O	H37Rv		MIC		>12.5 µg/mL
CC(=O)c1cc([N+](=O)[O-])c2ncccc2c1C1CCCCC1	H37Rv		MIC		>6.25 µg/mL
CNC(=S)N=Nc1c(O)[nH]c2ccccc12	H37Rv		MIC		>12.5 µg/mL
Cc1ccc2nc3c(Cl)cc(=O)cc-3sc2c1	H37Rv		MIC bound	BACTEC	≤12.5 µg/mL
O=c1cc(-c2ccccc2)oc2cc(Cl)ccc12	H37Rv		MIC		>12.5 µg/mL
CCSSC1(C)C(=O)N2CCCC2C(=O)N1C	H37Rv	12.5 µg/mL	inhibition	BACTEC	10%
COc1ccc(C2CC(=O)c3c(OC)cc(OC)c(I)c3O2)cc1		12.5 µg/mL	inhibition		0%
NC(=S)[S-].[NH4+]	H37Rv		MIC	BACTEC	≥12.5 µg/mL
Nc1ccc(C(=O)/C=C/c2ccccc2)cc1	H37Rv		MIC		>12.5 µg/mL
O=C/C=C/c1ccc([N+](=O)[O-])cc1Cl	H37Rv	12.5 µg/mL	inhibition	BACTEC	100%
CC(=O)c1cc(N)c2ncccc2c1C1CCCC1	H37Rv	6.25 µg/mL	inhibition		24%
Cc1ccc(NC(=O)OCCN(C)C)cc1Cl	H37Rv	12.5 µg/mL	inhibition	BACTEC	15%
C=CCN1C(=O)C(C)S/C1=N/N=C1\C(=O)Nc2ccc(Br)cc21	H37Rv		MIC		>12.5 µg/mL
CC1(C)OC2(CC1C1(C)C=CC(=O)O1)CC1C(O)(CCC34CC13C(=O)OC4c1ccoc1)O2	H37Rv		MIC bound	BACTEC	>12.5 µg/mL
CN[C@@H]1[C@H](O[C@H]2[C@H](O[C@H]3[C@H](O)[C@@H](O)[C@H](N=C(N)N)[C@@H](O)[C@@H]3N=C(N)N)O[C@@H](C)[C@]2(O)C=O)O[C@@H](CO)[C@H](O)[C@H]1O	Isolate 3		MIC		4 µg/mL

A second listing of 11 rows from above:

| compound | strain | tested at | endpoint | read by | value |
|---|---|---|---|---|---|
| CCOc1ccc(-n2c(-c3ccc(C)cc3)cs/c2=N\NC(=O)COc2cnccn2)cc1 | H37Rv |  | MIC |  | 12 µg/mL |
| C[C@H]1C[C@H](N)CN1c1cc2c(cc1F)c(=O)c(C(=O)O)cn2-c1ccc(F)cc1F | ATCC35838 |  | MIC |  | 2 µg/mL |
| O=c1cc(-c2ccc(Cl)cc2)oc2ccccc12 | H37Rv | 12.5 µg/mL | inhibition |  | 7% |
| NNC(=O)c1ccncc1 | CSU22 |  | MIC |  | >8 µg/mL |
| O=C(NCCO)c1c(CNC2CCCCC2)n([O-])c2ccccc2[n+]1=O | H37Rv | 6.25 µg/mL | inhibition | resazurin | -18% |
| C[C@@H]1CN(c2c(F)c(N)c3c(=O)c(C(=O)O)cn(C4CC4)c3c2F)C[C@H](C)N1 | Isolate 9 |  | MIC |  | 2 µg/mL |
| COc1ccccc1C1OC2=Nc3cc(C)c(C)cc3NC2C1=O | H37Rv |  | MIC bound | BACTEC | >12.5 µg/mL |
| CN[C@@H]1[C@H](O[C@H]2[C@H](O[C@H]3[C@H](O)[C@@H](O)[C@H](N=C(N)N)[C@@H](O)[C@@H]3N=C(N)N)O[C@@H](C)[C@]2(O)C=O)O[C@@H](CO)[C@H](O)[C@H]1O | Isolate 3 |  | MIC |  | 4 µg/mL |
| Cc1ccc2nc3c(Cl)cc(=O)cc-3sc2c1 | H37Rv |  | MIC bound | BACTEC | ≤12.5 µg/mL |
| C[C@@H]1CN(c2c(F)c(N)c3c(=O)c(C(=O)O)cn(C4CC4)c3c2F)C[C@H](C)N1 | CSU23 |  | MIC |  | ≤0.125 µg/mL |
| CC1(C)OC2(CC1C1(C)C=CC(=O)O1)CC1C(O)(CCC34CC13C(=O)OC4c1ccoc1)O2 | H37Rv |  | MIC bound | BACTEC | >12.5 µg/mL |